Data reported in patent US9944654B2, “Nargenicin compounds and uses thereof as antibacterial agents” (priority 2014, dated 2018).

Sequences of proteins named here, by UniProt entry; tags and fusion partners are left off.
UniProt Q5HF71, whole entry: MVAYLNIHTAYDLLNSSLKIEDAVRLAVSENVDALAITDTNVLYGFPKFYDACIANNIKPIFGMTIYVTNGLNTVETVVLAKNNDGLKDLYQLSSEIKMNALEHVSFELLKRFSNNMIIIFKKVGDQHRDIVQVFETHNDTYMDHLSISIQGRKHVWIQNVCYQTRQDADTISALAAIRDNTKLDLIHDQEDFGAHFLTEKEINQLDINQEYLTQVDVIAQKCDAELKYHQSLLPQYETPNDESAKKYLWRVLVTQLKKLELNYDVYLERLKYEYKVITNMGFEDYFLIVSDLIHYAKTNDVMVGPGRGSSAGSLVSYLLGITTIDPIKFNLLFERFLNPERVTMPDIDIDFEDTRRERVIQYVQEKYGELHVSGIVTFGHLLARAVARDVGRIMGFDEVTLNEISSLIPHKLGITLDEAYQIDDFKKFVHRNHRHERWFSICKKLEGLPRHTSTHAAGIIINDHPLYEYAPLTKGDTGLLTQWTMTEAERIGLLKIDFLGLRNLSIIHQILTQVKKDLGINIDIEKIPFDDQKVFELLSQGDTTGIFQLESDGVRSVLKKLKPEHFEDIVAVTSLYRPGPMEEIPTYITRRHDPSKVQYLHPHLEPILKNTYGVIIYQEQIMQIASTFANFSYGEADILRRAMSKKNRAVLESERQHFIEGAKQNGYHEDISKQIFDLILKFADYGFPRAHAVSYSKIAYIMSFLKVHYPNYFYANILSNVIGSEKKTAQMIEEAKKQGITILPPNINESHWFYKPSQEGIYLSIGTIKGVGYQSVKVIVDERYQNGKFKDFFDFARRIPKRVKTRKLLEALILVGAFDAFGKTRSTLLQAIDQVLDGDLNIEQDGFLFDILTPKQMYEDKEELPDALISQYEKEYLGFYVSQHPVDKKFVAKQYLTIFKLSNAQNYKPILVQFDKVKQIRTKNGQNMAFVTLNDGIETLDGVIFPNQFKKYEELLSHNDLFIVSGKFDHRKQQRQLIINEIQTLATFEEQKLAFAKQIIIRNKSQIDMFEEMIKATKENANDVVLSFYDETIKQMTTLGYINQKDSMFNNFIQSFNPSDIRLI

Experiments:
[1] = system: Staphylococcus aureus MB6266 (MRSA COL); test: Nargenicin antibacterial assay (MIC), S. aureus; type: cell-based; settings: MHII broth + 50% human serum; * = some reduction of growth versus control at […]
[2] = system: Streptococcus pneumoniae MB6357 (CL 2883); test: Nargenicin antibacterial assay (MIC), S. pneumoniae; type: cell-based; settings: Isosensitest broth; * = some reduction of growth versus control at […]
[3] = system: Pseudomonas aeruginosa MB5890 (CB1101, efflux-deleted); settings: MHII broth; * = some reduction of growth versus control at […]
[4] = target: S. aureus DnaE (DNA polymerase III α-subunit homolog from Staphylococcus aureus) (Staphylococcus aureus, UniProt Q5HF71)

## CO[C@H]1C[C@H]2C=C[C@H]3[C@H]4O[C@]2(/C(C)=C/[C@@H](C)[C@@H]([C@@H](C)O)OC1=O)[C@@H]3C(O)[C@@H](C)[C@H]4OC(=O)c1ccc[nH]1 (stereo partly shown)
[1]
  S. aureus COL (MIC): 16 µg/mL
[2]
  S. pneumoniae MB2883 (MIC): >64* μg/mL
[3]
  P. aeruginosa MB5890 efflux-del (MIC): >64* μg/mL
[4]
  S. aureus DnaE IC50: 0.008 µg/mL
